Share of PSTVd stem 3 variants by leaf site

Values reported by Wu et al. 2024 (doi:10.1371/journal.ppat.1012142).

The pool varies stem 3 of the PSTVd intermediate strain in the pattern GUGGUUCCGNANNCNN; wild type is GUGGUUCCGGAACCGC (upper and lower strand joined, each 5' to 3', the first 8 letters being the upper strand).

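A pool of all variants was put on leaves of three Nicotiana benthamiana plants. Samples came from the inoculated region at 5 days, the leaf margin at 10 and upper systemic leaves at 12.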

Values are reads per thousand in the sample; higher means more abundant, 0 means not found. Each value is the mean of three plants. "Pool" is the share in the plasmid pool used as inoculum, on the same scale. The inoculated region was read from the minus strand, the other sites from the plus strand.

GUUGUUCCGGAGGCGG (pool 0.0154) gave inoculated region 0.00901; leaf margin 0; systemic leaves 0. GGGGUUCCGCAGACGC (pool 0.0154) gave inoculated region 0; leaf margin 0; systemic leaves 0. With GUGGUUCCGUAUACAG (pool 1.03) the assay gave inoculated region 0.456; leaf margin 0.00944; systemic leaves 0. GUGGUUCCGAAGGCCA (pool 1.02) read inoculated region 0.770; leaf margin 0.383; systemic leaves 0. GUGGUUCCGAACACAG (pool 1.35) gave inoculated region 1.12; leaf margin 0.0332; systemic leaves 0.00811.

GUGGGUCCGCAUGCCC (pool 0.0154) read inoculated region 0; leaf margin 0; systemic leaves 0. With GUGGUUCCGAAAACUA (pool 0.616) the assay gave inoculated region 0.342; leaf margin 0; systemic leaves 0. GUGUUUCCGUAACCGA (pool 0.0154) read inoculated region 0; leaf margin 0; systemic leaves 0. GUGGUUCCGGAUACGA (pool 1.18) read inoculated region 0.534; leaf margin 0.0200; systemic leaves 0.0311. With GUGGUUCCGAAUACUU (pool 0.908) the assay gave inoculated region 0.793; leaf margin 0.0226; systemic leaves 0.

GUGGUUCCGCAUGCCC (pool 1.66) gave inoculated region 0.622; leaf margin 0.0295; systemic leaves 0. With GUGGUUCCGUAAACGU (pool 1.00) the assay gave inoculated region 0.319; leaf margin 0.0120; systemic leaves 0. For GUGUUUCCGGAUACGU (pool 0.0154) the result was inoculated region 0; leaf margin 0; systemic leaves 0. With GUGGUUCCGCAAACGG (pool 0.862) the assay gave inoculated region 0.212; leaf margin 0; systemic leaves 0. For GUGGUUCCGUAACCCA (pool 0.939) the result was inoculated region 0.394; leaf margin 0; systemic leaves 0.

GUGGUUCCGCAGUCGU (pool 0.662) read inoculated region 0.714; leaf margin 0.414; systemic leaves 0. For GUGGUUCCGAAUACCG (pool 0.785) the result was inoculated region 0.328; leaf margin 0; systemic leaves 0. With GUGGUUCCGGCACCGC (pool 0.0923) the assay gave inoculated region 0.131; leaf margin 0.188; systemic leaves 0.221. For GUGGUUCCGGAGUCAC (pool 0.769) the result was inoculated region 0.792; leaf margin 0.445; systemic leaves 0. GUGGUUCCGCAAUCCU (pool 0.970) read inoculated region 0.835; leaf margin 0.612; systemic leaves 0.

With GUGGUUCCGUACCCGG (pool 0.785) the assay gave inoculated region 0.353; leaf margin 0.0106; systemic leaves 0. For GUGGUUCCGAAAUCGA (pool 1.12) the result was inoculated region 0.919; leaf margin 0.0200; systemic leaves 0.0143.

Extract of 3 entries:

GUGGUUCCGCAUGCCC (pool 1.66) read inoculated region 0.622; leaf margin 0.0295; systemic leaves 0.
GUUGUUCCGGAGGCGG (pool 0.0154) read inoculated region 0.00901; leaf margin 0; systemic leaves 0.
GUGGUUCCGCAAACGG (pool 0.862) read inoculated region 0.212; leaf margin 0; systemic leaves 0.

The authors trace changes outside the varied positions to PCR and sequencing errors or to mutation in the plant; presence does not show that a variant is infectious alone. For reference, wild type rose from 17.3 per thousand in the pool to 330, 345, 235 (inoculated region), 794, 766, 816 (leaf margin) and 830, 792, 869 (systemic leaves). Samples held 27,691 to 54,225 reads, so the smallest values rest on one or two reads.